Assay results reported in patent US20070036811A1.

Biological target: HLA-A2 (human)

**Q.** For HIV-1 pol476-484 ([…]) (peptide), which C50 (peptide concentration for half maximal recovery of class I MHC) is on record?
**A.** The C50 (peptide concentration for half maximal recovery of class I MHC) was 0.2 µM.
